A mixed list of measured activities; the numbers were collected in NIAID ChemDB.

All rows: whole-cell or culture tests

Conditions beyond the fields shown may differ between rows. Blank or dashed fields: not listed here. A number after MIC or MFC names an inhibition level or a share of isolates.

compound,agent,strain or isolate,read by,conditions,endpoint,result
O=C1c2cc(Br)ccc2OP(=O)(c2ccccc2)N1c1ccc(C(F)(F)F)cc1,Mycobacterium kansasii,My 235/80,,21 d,MIC,8 µM
CC1CN(c2cc3c(cc2F)c(=O)c(C(=O)O)cn3C2CC2)CC(C)N1,Mycobacterium smegmatis,KD2012 (GYRA G89A),,,MIC99,0.63 µg/mL
CCOc1cc(Cc2cnc(N)nc2N)cc(OCC)c1-n1cccc1,Mycobacterium ulcerans,Isolate 5155,,,MIC,0.5 µg/mL
O=C(Nc1ccc(C(F)(F)F)cc1)c1cc(Br)ccc1OP(=O)(Oc1ccccc1)Oc1ccccc1,Mycobacterium kansasii,My 235/80,,14 d,MIC,4 µM
CC[C@H]1OC(=O)[C@H](C)[C@@H](O[C@H]2C[C@@](C)(OC)[C@@H](O)[C@H](C)O2)[C@H](C)[C@@H](O[C@@H]2O[C@H](C)C[C@H](N(C)C)[C@H]2O)[C@](C)(OC)C[C@@H](C)C(=O)[C@H](C)[C@@H](O)[C@]1(C)O,Mycobacterium abscessus,X3,broth dilution,,MIC,2 µg/mL
O=C(Nc1ccc(Cl)cc1)c1cc(Cl)ccc1OP(=O)(OCc1ccccc1)OCc1ccccc1,Mycobacterium kansasii,My 235/80,,7 d,MIC,16 µM
CC1CN(c2c(F)cc3c(=O)c(C(=O)O)cn(C4CC4)c3c2F)CCN1,Mycobacterium smegmatis,KD2003 (GYRA D95G),,,MIC99,1.2 µg/mL
O=C(Nc1ccc(Br)cc1)c1cc(Cl)ccc1OP(=O)(Oc1ccccc1)Oc1ccccc1,Mycobacterium kansasii,My 235/80,,14 d,MIC,8 µM
CO[C@H]1/C=C/O[C@@]2(C)Oc3c(C)c(O)c4c(O)c(c5c(c4c3C2=O)NC2(CCN(CC(C)C)CC2)N=5)=NC(=O)/C(C)=C\C=C\[C@H](C)[C@H](O)[C@@H](C)[C@@H](O)[C@@H](C)[C@H](OC(C)=O)[C@@H]1C,Mycobacterium avium complex,2020-4,,,MIC,0.5 µg/mL
CC[C@@H](CO)NCCN[C@@H](CC)CO,Mycobacterium bovis BCG,1173P2,broth dilution,24 h,MIC100,0.75 µg/mL
CN(C)c1cc(NC(=O)CNC(C)(C)C)c(O)c2c1C[C@H]1C[C@H]3[C@H](N(C)C)C(=O)C(C(N)=O)=C(O)[C@@]3(O)C(=O)C1=C2O,Mycobacterium abscessus,T45,broth dilution,,MIC,0.25 µg/mL
O=C(Nc1ccc(Br)cc1)c1cc(Cl)ccc1OP(=O)(c1ccccc1)c1ccccc1,Mycobacterium kansasii,My 6509/96,,7 d,MIC,8 µM
CCN1CCN(c2c(F)cc3c(=O)c(C(=O)O)cn(C4CC4)c3c2F)CC1,Mycobacterium smegmatis,KD1995 (GYRA D95H),,,MIC99,2 µg/mL
O=C(Nc1ccccc1)c1ccccc1OP(=O)(Oc1ccccc1)c1ccccc1,Mycobacterium kansasii,My 6509/96,,7 d,MIC,250 µM
CCN(CC)c1nc2c(s1)c1c(O)c3c(O)c(C)c4c(c32)C(=O)[C@@](C)(O/C=C/[C@H](OC)[C@@H](C)[C@@H](OC(C)=O)[C@H](C)[C@H](O)[C@H](C)[C@@H](O)[C@@H](C)/C=C/C=C(/C)C(=O)N1)O4,Mycobacterium avium,211-5,,,MBC,8 µg/mL
O=C(Nc1ccc(Cl)cc1)c1cc(Cl)ccc1OP(=O)(Oc1ccccc1)Oc1ccccc1,Mycobacterium kansasii,My 235/80,,21 d,MIC,8 µM
CCC1CN(c2c(F)cc3c(=O)c(C(=O)O)cn(C4CC4)c3c2F)CCN1,Mycobacterium smegmatis,KD1990 (GYRA D95A),,,MIC99,0.67 µg/mL
COc1cc(Cc2cnc(N)nc2N)cc(OC)c1OCCCNc1ccc(S(=O)(=O)c2ccc(N)cc2)cc1,Mycobacterium ulcerans,Isolate 8756,,,MIC,1 µg/mL
COc1ccc(Cn2cc(/C=N/NC(=S)NN)c3ccccc32)cc1,Mycobacterium bovis BCG,1173P2,broth dilution,48 h,MIC100,>500 µg/mL
O=C1c2ccccc2OP(=O)(c2ccccc2)N1c1ccccc1,Mycobacterium kansasii,My 235/80,,21 d,MIC,500 µM
COc1c(N2CC(C)NC(C)C2)c(F)cc2c(=O)c(C(=O)O)cn(C3CC3)c12,Mycobacterium smegmatis,KD2012 (GYRA G89A),,,MIC99,0.18 µg/mL
Brc1ccc(Cn2cc(/C=N/Nc3nncs3)c3ccccc32)cc1,Mycobacterium bovis BCG,1173P2,broth dilution,24 h,MIC100,3.91 µg/mL
COc1c(N2CCNC(C)C2)c(F)cc2c(=O)c(C(=O)O)cn(C3CC3)c12,Mycobacterium smegmatis,KD2008 (GYRA G89C),,,MIC99,0.73 µg/mL
NNC(=S)N/N=C/c1cn(CC2CCC2)c2ccccc12,Mycobacterium bovis BCG,1173P2,broth dilution,48 h,MIC100,>500 µg/mL

3 of the rows above, restated:

compound	agent	strain or isolate	read by	conditions	endpoint	result
CC1CN(c2c(F)cc3c(=O)c(C(=O)O)cn(C4CC4)c3c2F)CCN1	Mycobacterium smegmatis	KD2003 (GYRA D95G)			MIC99	1.2 µg/mL
O=C(Nc1ccccc1)c1ccccc1OP(=O)(Oc1ccccc1)c1ccccc1	Mycobacterium kansasii	My 6509/96		7 d	MIC	250 µM
COc1ccc(Cn2cc(/C=N/NC(=S)NN)c3ccccc32)cc1	Mycobacterium bovis BCG	1173P2	broth dilution	48 h	MIC100	>500 µg/mL